This note sets out measurements from patent US12630604B2, “Methods of making chimeric antigen receptor-expressing cells” (Novartis AG, priority 2018, dated 2026).

The test system of this experiment is T cells. In words: T cell culture with cytokines after αCD3/αCD28 bead activation (expansion, size, viability). Format: cell-based. To be noted: after TCR engagement. As to the method: Previously frozen T cells were thawed and contacted with αCD3/αCD28 dynal beads (cell to bead ratio of 1 to 3) in the presence of indicated cytokines at day 0. From day 3, twice more T cell growth media (RPMI1640, 10% FBS, 2 mM L-glutamin, 100 μM non-essential amino acids, 1 mM sodium pyruvate, 10 mM Hepes, 55 μM β-mercaptoethanol, 10% FBS, and 100 U/ml of penicillin-streptomycin) was added to the plate with indicated cytokines (without cytokine, rhIL2 (501 U/ml, Novartis), IL6 (10 ng/ml, R&D systems), IL7 (10 ng/ml, Peprotech), IL15 (10 ng/ml, Peprotech), and IL21 (10 ng/ml, Peprotech)) at day 3, 5, 6, 9, 12, 15, and 18. Cells treated without cytokine, IL6, or IL21 were cultured until day 18 and cells treated with IL2, IL7, or IL15 were cultured until day 25.

Regarding IL-2: cytokine, rhIL2, the “cell size and viability” value is “did not affect cell size and viability”.
